Target: T1, Matrix protein 2 (Influenza A virus (strain A/Chicken/Weybridge H7N7), UniProt P05778)
T1 sequence (P05778 whole entry): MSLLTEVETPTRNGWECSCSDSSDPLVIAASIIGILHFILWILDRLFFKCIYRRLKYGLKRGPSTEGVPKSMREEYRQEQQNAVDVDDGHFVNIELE
Test: Binding affinity to Influenza A Weybridge(H7N7) virus Matrix protein 2 by spectrophotometry

SMILES: C[C@@H](N)C12CC3CC(CC(C3)C1)C2 [(alpha-methyl-1-adamantyl)methylamine]
- Kd: 16 nM
